Target: RBD (SARS-COV-2) (UniProt P0DTC2)
Assay: SPR

C121
Kd: 3.9 nM

— patent publication US20240181044A1
